Pooled drug test results. Numbers come from NIAID ChemDB, via PubChem.

Shared fields: tests on isolated targets

Fold resistance: result on the changed form divided by that on wild type. An empty or dashed field is not shown. ICn is the concentration giving n% inhibition. Inhibition is in % at the dose shown (toxicity tests: loss of growth or viability). a–b is a range or a potency band. Lines come from different laboratories, so protocols vary.

smiles,protein,dose,read by,strain or isolate,measure,species,changes,value
CCCCCCCCC[C@@H]1O[C@@H]1C(N)=O,Protease,500 µg/mL,HPLC,,inhibition,HIV-2,,0%
O=C(COc1ccc(NC(=O)CSc2nnnn2-c2ccc(C3CC3)cc2Cl)c(Cl)c1)NCc1cccnc1,Reverse transcriptase,,PicoGreen / fluorescence,,IC50,HIV-1,RT-K103 Y181C,<1 µM
CCN1c2ncc(CCOc3ccc(-c4cn(C)cn4)cc3C)cc2C(=O)N(C)c2cccnc21,Reverse transcriptase,,nucleotide incorporation / radiometric,IIIB,fold resistance,HIV-1,RT-K103N Y181C,1
CC(C)(C)c1ccc(-n2nnnc2SCC(=O)Nc2ccc(OCC(=O)Nc3ccc(CC(=O)O)cc3)cc2Cl)c(Cl)c1,Reverse transcriptase,,PicoGreen / fluorescence,WT,IC50,HIV-1,,<1 µM
O=C(OC[C@H]1O[C@@H](O)[C@@H]2OC(=O)c3cc(O)c(O)c(O)c3-c3c(cc(O)c(O)c3O)C(=O)O[C@H]2[C@@H]1OC(=O)c1cc(O)c(O)c(O)c1Oc1cc2c(c(O)c1O)-c1c(cc(O)c(O)c1O)C(=O)O[C@@H]1[C@@H](OC2=O)[C@H](OC(=O)c2cc(O)c(O)c(O)c2)O[C@@H]2COC(=O)c3cc(O)c(O)c(O)c3-c3c(cc(O)c(O)c3O)C(=O)O[C@@H]12)c1cc(O)c(OC(=O)c2cc(O)c(O)c(O)c2)c(O)c1,gp120,0.78 µg/mL,binding,,inhibition,HIV-1,,42.6%
Cc1nc2ccccc2c(=O)o1,RNase H,,RNase H / fluorescence,,IC50,HIV-1,,3.61 µM
FC(F)(F)c1cc(C(F)(F)F)c2ccc3nnc(-n4cccc4)n3c2n1,gp41,,fluorescence,,IC50,HIV-1,,40 µM
CC(C)(C#Cc1ccc(NC(=O)CSc2nnnn2-c2ccc(C(C)(C)C)cc2Cl)c(Cl)c1)OCC(=O)Nc1ccc(O)cc1,Reverse transcriptase,,PicoGreen / fluorescence,,IC50,HIV-1,RT-K103 Y181C,<1 µM
NC(=O)c1c(NC(=O)c2ccccc2O)sc2c1CCCCC2,RNase H,,RNase H / fluorescence,,IC50,HIV-1,,66.4 µM
O=C(CSc1nnnn1-c1ccc(C2CC2)cc1Cl)Nc1ccc(-c2ccc(OCCN3CCCCC3)c(Cl)c2)cc1Cl,Reverse transcriptase,,PicoGreen / fluorescence,WT,IC50,HIV-1,,<1 µM
CCN1c2ncc(CCOc3ccc(-c4cscn4)cc3)cc2C(=O)N(C)c2cccnc21,Reverse transcriptase,,nucleotide incorporation / radiometric,IIIB,fold resistance,HIV-1,RT-K103N Y181C,>2
O=C(CSc1nnnn1-c1ccc(C(F)(F)F)cc1Cl)Nc1ccc(-c2ccc(OCCN3CCCCC3)cc2)cc1Cl,Reverse transcriptase,,PicoGreen / fluorescence,,IC50,HIV-1,RT-K103 Y181C,<1 µM
CC(=O)Nc1cn2c(C)cn(Cc3cccc(Cl)c3)c(=O)c2c(O)c1=O,Integrase,,ELISA,,IC50,HIV-1,,0.01–0.1 µM
Cc1nc2c(c(=O)o1)CCCCC2,RNase H,,RNase H / fluorescence,,IC50,HIV-1,,4.36 µM
O=C(CSc1nnnn1-c1ccc(C2CC2)cc1Cl)Nc1ccc(OCC(=O)N2CCC(C(=O)O)CC2)cc1Cl,Reverse transcriptase,,PicoGreen / fluorescence,,IC50,HIV-1,RT-K103 Y181C,<1 µM
O=CC(O)C(OC(=O)c1cc(O)c(O)c(O)c1)C1OC(=O)c2cc(O)c(O)c(O)c2-c2c(cc(O)c(O)c2O)C(=O)OCC1O,gp120,6.25 µg/mL,binding,,inhibition,HIV-1,,70.5%
O=c1oc(-c2ccc(Cl)cc2)nc2sc3c(c12)CCCCC3,RNase H,,RNase H / fluorescence,,IC50,HIV-1,,97 µM
NC(=O)c1ccn2c1CS[C@@H]2c1cccnc1,Tat:TAR/LTR,100 µM,,,inhibition,HIV-1,,~40%
CCOC(=O)/C=C/n1ncnc1-c1cc(Cl)ccc1N,Rev:RRE,,luciferase,,IC50,HIV-1,,1.98 µM
CC(C)(C#Cc1ccc(NC(=O)CSc2nnnn2-c2ccc(C3CC3)cc2Cl)c(Cl)c1)OCCOc1ccncc1,Reverse transcriptase,,PicoGreen / fluorescence,,IC50,HIV-1,RT-K103 Y181C,<1 µM
O=CC1OC(=O)c2cc(O)c(O)c(O)c2Oc2cc3c(c(O)c2O)-c2c(cc(O)c(O)c2O)C(=O)OCC2OC(OC(=O)c4cc(O)c(O)c(O)c4Oc4cc5c(c(O)c4O)-c4c(cc(O)c(O)c4O)C(=O)OC(C(O)COC5=O)C1OC(=O)c1cc(O)c(O)c(O)c1)C(OC(=O)c1cc(O)c(O)c(O)c1)C(OC(=O)c1cc(O)c(O)c(O)c1)C2OC3=O,Capsid,,antigen,,IC50,HIV-1,,3.1 µg/mL
CC(C)(C)c1ccc(-n2nnnc2SCC(=O)Nc2ccc(OCC(=O)Nc3nc(C(=O)O)cs3)cc2Cl)c(Cl)c1,Reverse transcriptase,,PicoGreen / fluorescence,WT,IC50,HIV-1,,<1 µM
CC(C)Cc1cc(-c2ccc(-c3ccc(CCC(=O)O)cc3CC(C)C)cc2C(C)C)ccc1OCC(=O)O,gp41,,ELISA,,IC50,HIV-1,,13.18 µg/mL
CC(=O)c1cc(C)n(-c2ccc(C(=O)O)c(O)c2)c1C,gp41,,fluorescence,,IC50,HIV-1,,500 µg/mL
Fc1cccc(Cl)c1-c1nnc2ccc3c(C(F)(F)F)ccnc3n12,gp41,,fluorescence,,IC50,HIV-1,,>100 µM
Cc1cc(C(F)(F)F)cc(-n2nnnc2SCC(=O)Nc2ccc(-c3ccc(CC(=O)O)cc3)cc2Cl)c1Cl,Reverse transcriptase,,PicoGreen / fluorescence,,IC50,HIV-1,RT-K103 Y181C,<1 µM
CCN1c2ncc(CCOc3ccc(-c4ccc(C(=O)O)c(Cl)c4)cc3C)cc2C(=O)N(C)c2cccnc21,Reverse transcriptase,,nucleotide incorporation / radiometric,IIIB,fold resistance,HIV-1,RT-K103N Y181C,>1
CC(C)(C#Cc1ccc(NC(=O)CSc2nnnn2-c2cc(C(F)(F)F)ccc2Cl)c(Cl)c1)OCCN1CCCC1,Reverse transcriptase,,PicoGreen / fluorescence,WT,IC50,HIV-1,,<1 µM
CCCCCCC[C@H]1O[C@H]1CO,Protease,,HPLC,,IC50,HIV-2,,<500 µg/mL
Cc1cc(S(=O)(=O)NC2=NC3C=CSC3C(=O)N2N)c(S)cc1Cl,Integrase,,strand transfer,,IC50,HIV,,53 µM
CC(C)C(C(=O)Nc1cn2ccn(Cc3cccc(Cl)c3)c(=O)c2c(O)c1=O)C(C)C,Integrase,,ELISA,,IC50,HIV-1,,0.01–0.1 µM
CC(C)(C)c1ccc(-n2nnnc2SCC(=O)Nc2ccc(C#CC3CC3)cc2Cl)c(Cl)c1,Reverse transcriptase,,PicoGreen / fluorescence,WT,IC50,HIV-1,,<1 µM
CC(C)=CCN1Cc2cccc3[nH]c(=S)n(c23)C[C@@H]1C,Reverse transcriptase,,nucleotide incorporation,,IC50,HIV,RT-F61L,0.18 µM
Nc1nc2c(ncn2[C@H]2CO[C@@H](COP(=O)(O)OP(=O)(O)OP(=O)(O)O)O2)c(=O)[nH]1,Reverse transcriptase,,radiometric,,fold resistance,HIV,RT-Q151M K103N,1.5
O=C(O)CCc1ccc(-c2ccc(-c3ccc(CCC(=O)O)cc3)cc2)cc1,gp41,,ELISA,,IC50,HIV-1,,>100 µg/mL
CCCC[C@H](NC(=O)[C@H](C)NC(=O)[C@H](CCC(=O)O)NC[C@H](Cc1ccccc1)NC(=O)[C@H](CC(C)C)NC(=O)[C@@H](NC(=O)[C@@H](N)CCCN=C(N)N)C(C)C)C(N)=O,Protease,,HPLC,,IC50,HIV,PR-R8Q,<0.075 µM
CC(C)=CCC/C(C)=C/CC/C(C)=C/CC/C(C)=C/CC/C(C)=C/CC/C(C)=C/Cc1cc(O)ccc1O,Reverse transcriptase,,nucleotide incorporation,,IC90,HIV-2,,4.3 µM
CNC(=O)[C@@H](Cc1ccccc1)NP(=O)(O)OC[C@H]1O[C@@H](n2cc(C)c(=O)[nH]c2=O)C[C@@H]1N=[N+]=[N-],Rev:RRE,,fluorescence,,Ki,HIV-1,,0.0085 µM
COCC(=O)Nc1cn2ccn(Cc3cccc(Cl)c3)c(=O)c2c(O)c1=O,Integrase,,ELISA,,IC50,HIV-1,,<0.01 µM
FC(F)(F)c1cc(C(F)(F)F)c2ccc3nnc(-c4cccs4)n3c2n1,gp41,,fluorescence,,IC50,HIV-1,,~4.5 µM
CSCCC(NC(=O)c1ccc(NC(=O)CSc2nnnn2-c2ccc(C(C)(C)C)cc2Cl)c(Cl)c1)C(=O)O,Reverse transcriptase,,PicoGreen / fluorescence,WT,IC50,HIV-1,,<1 µM
Cc1cc(C(=O)c2ccc([N+](=O)[O-])cc2)c(-c2ccccc2)n1-c1ccc(C(=O)O)c(O)c1,gp41,,fluorescence,,IC50,HIV-1,,123 µg/mL
CC(C)(C#Cc1ccc(NC(=O)CSc2nnnn2-c2cc(F)ccc2Cl)c(Cl)c1)C(=O)O,Reverse transcriptase,,PicoGreen / fluorescence,,IC50,HIV-1,RT-K103 Y181C,<1 µM
O=C1c2c(O)c(=O)c(-c3nccs3)cn2CCN1Cc1ccc(OCc2ccccc2)c(Cl)c1,Integrase,,ELISA,,IC50,HIV-1,,0.01–0.1 µM
CCN1c2ncc(CCOc3ccc(N(Cc4ccc(C(=O)O)cc4)C(C)=O)cc3C)cc2C(=O)N(C)c2cccnc21,Reverse transcriptase,,nucleotide incorporation / radiometric,IIIB,fold resistance,HIV-1,RT-K103N Y181C,>1
CNCCOC(=O)COC(C)(C)C#Cc1ccc(NC(=O)CSc2nnnn2-c2ccc(C(C)(C)C)cc2Cl)c(Cl)c1,Reverse transcriptase,,PicoGreen / fluorescence,WT,IC50,HIV-1,,<1 µM
CS(=O)(=O)Nc1cn2ccn(Cc3ccc(F)cc3)c(=O)c2c(O)c1=O,Integrase,,ELISA,,IC50,HIV-1,,<0.01 µM
CC(C)(C)c1ccc(-n2nnnc2SCC(=O)Nc2ccc(-c3ccc(OCCN4CCOCC4)cc3)cc2Cl)c(Cl)c1,Reverse transcriptase,,PicoGreen / fluorescence,,IC50,HIV-1,RT-K103 Y181C,<1 µM
Cc1cc(C(=O)c2ccccc2)c(C)n1-c1ccc(C(=O)O)c(O)c1,gp41,,fluorescence,,IC50,HIV-1,,500 µg/mL
CC(C)(C#Cc1ccc(NC(=O)CSc2nnnn2-c2ccc(C(C)(C)C)cc2Cl)c(Cl)c1)OCC(=O)NCCO,Reverse transcriptase,,PicoGreen / fluorescence,,IC50,HIV-1,RT-K103 Y181C,<1 µM
O=C(c1ccccc1)c1cc(=O)c(O)c2n1CCN(Cc1ccc(Cl)c(Cl)c1)C2=O,Integrase,,ELISA,,IC50,HIV-1,,<0.01 µM
CC(C)(C#Cc1ccc(NC(=O)CSc2nnnn2-c2cc(C(F)(F)F)ccc2Cl)c(Cl)c1)C(=O)O,Reverse transcriptase,,PicoGreen / fluorescence,WT,IC50,HIV-1,,<1 µM
O=C(Nc1cn2ccn(Cc3cccc(Cl)c3)c(=O)c2c(O)c1=O)c1ccccn1,Integrase,,ELISA,,IC50,HIV-1,,<0.01 µM
Cc1cc(S(=O)(=O)Nc2nc(=O)c3ccccc3n2C)c(SCOc2ccccc2)cc1Cl,Integrase,,strand transfer,,IC50,HIV,,90 µM
CC(C)c1cc(Cl)c(-n2nnnc2SCC(=O)Nc2ccc(-c3ccc(CC(=O)O)cc3)cc2Cl)c(C(F)(F)F)c1,Reverse transcriptase,,PicoGreen / fluorescence,,IC50,HIV-1,RT-K103 Y181C,<1 µM

8 of the rows above, restated:

| smiles | protein | dose | read by | strain or isolate | measure | species | changes | value |
|---|---|---|---|---|---|---|---|---|
| COCC(=O)Nc1cn2ccn(Cc3cccc(Cl)c3)c(=O)c2c(O)c1=O | Integrase |  | ELISA |  | IC50 | HIV-1 |  | <0.01 µM |
| Cc1cc(C(=O)c2ccccc2)c(C)n1-c1ccc(C(=O)O)c(O)c1 | gp41 |  | fluorescence |  | IC50 | HIV-1 |  | 500 µg/mL |
| CS(=O)(=O)Nc1cn2ccn(Cc3ccc(F)cc3)c(=O)c2c(O)c1=O | Integrase |  | ELISA |  | IC50 | HIV-1 |  | <0.01 µM |
| O=C(CSc1nnnn1-c1ccc(C(F)(F)F)cc1Cl)Nc1ccc(-c2ccc(OCCN3CCCCC3)cc2)cc1Cl | Reverse transcriptase |  | PicoGreen / fluorescence |  | IC50 | HIV-1 | RT-K103 Y181C | <1 µM |
| Cc1cc(S(=O)(=O)NC2=NC3C=CSC3C(=O)N2N)c(S)cc1Cl | Integrase |  | strand transfer |  | IC50 | HIV |  | 53 µM |
| Cc1nc2c(c(=O)o1)CCCCC2 | RNase H |  | RNase H / fluorescence |  | IC50 | HIV-1 |  | 4.36 µM |
| CCN1c2ncc(CCOc3ccc(-c4cn(C)cn4)cc3C)cc2C(=O)N(C)c2cccnc21 | Reverse transcriptase |  | nucleotide incorporation / radiometric | IIIB | fold resistance | HIV-1 | RT-K103N Y181C | 1 |
| FC(F)(F)c1cc(C(F)(F)F)c2ccc3nnc(-n4cccc4)n3c2n1 | gp41 |  | fluorescence |  | IC50 | HIV-1 |  | 40 µM |